Anti-infective test results gathered from many reports (values: NIAID ChemDB through PubChem).

All rows: whole-cell or culture tests; organism: Hepatitis B virus; read by: PCR; read-out: EC50

Rows are shuffled and stem from different studies. ECn is the concentration giving n% inhibition of infection, replication or growth. Blank or dashed fields: not listed here. Two numbers with a dash give a range or band.

SMILES | conditions | cells | changes | strain | result
O=C(c1ccc(Br)c(Cl)c1)N1CCS(=O)(=O)[C@@](F)(c2ncc(-c3ccccc3)s2)C1 |  | HepG2.117 |  |  | 0.5–5 µM
C[C@@H](NC(=O)c1c2n(c(=O)n1-c1ccc(OCC(F)(F)F)cc1)CCN(C(=O)c1ccc(Br)c(Cl)c1)C2)c1ccc(OC(F)F)cc1F |  | HepG2.117 |  |  | 0.5–5 µM
C=C[C@@](C)(NC(=O)C(=O)c1c(C)c(C(=O)Nc2ccc(F)c(C#N)c2)n(C)c1C)C(F)(F)F |  | HepG2.2.15 |  |  | 0.001–0.0099 µM
Cc1cc(NC(=O)c2c3c(cn2C)S(=O)(=O)N[C@H]2CN(C(=O)C(=O)NC4CC4)C[C@H]2CS3)ccc1F |  | HepAD38 |  |  | <0.5 µM
O=C(c1cc(F)cc(Cl)c1)N1CCS(=O)(=O)[C@H](c2cccs2)C1 |  | HepG2.117 |  |  | 0.5–5 µM
CCOC(=O)C1=C(CN2CC(F)(F)[C@@H]3[C@H]2CON3C[C@@H](OC)C(C)(C)C(=O)O)NC(c2nccs2)=N[C@@H]1c1ccc(F)c(F)c1C |  | HepG2.2.15 |  |  | 0.001 µM
Cc1cc(C)n(-c2nc3c(c(=O)n2-c2ccc(OC[C@H](C)O)cc2)C[C@@H](C)N(C(=O)c2ccc(Br)c(C(F)(F)F)c2)C3)n1 |  | HepG2.117 |  | Genotype D | ≤0.05 µM
Cn1cc(S(=O)(=O)Nc2ccc3c(C(=O)Nc4ccc(F)c(Cl)c4)n(CC4CC4)nc3c2)cn1 |  | HepAD38 |  |  | 100–1000 µM
Cc1cc(NC(=O)c2c3c(cn2C)S(=O)(=O)N[C@H]2CN(C(=O)C(=O)N[C@H](C)C(F)(F)F)C[C@H]2CO3)ccc1F |  | HepG2 | F23Y |  | 0.00633 µM
COC(=O)C1=C(CN2CC(F)(F)[C@@H]3[C@H]2CON3C[C@@H](F)C(C)(C)C(=O)O)NC(c2nccs2)=N[C@H]1c1ccc(F)c(F)c1Cl |  | HepG2.2.15 |  |  | 0.005 µM
COc1ccc(-n2c(C(=O)NCc3ccccc3F)c3n(c2=O)CCN(C(=O)c2ccc(Br)c(Cl)c2)C3)cc1 |  | HepG2.117 |  |  | 0.1–0.5 µM
Cn1nc2cc(NS(=O)(=O)c3ccn(-c4cccnc4)n3)ccc2c1C(=O)Nc1ccc(F)c(Cl)c1 |  | HepAD38 |  |  | 100–1000 µM
CCNC(=O)C(=O)N1CCC(NS(=O)(=O)c2c(C)c(C(=O)Nc3cc(F)c(F)c(F)c3)n3c2CCC3)CC1 |  | HepAD38 cells |  |  | 0.3–1 µM
O=C(c1ccc(Br)c(Cl)c1)N1CCS(=O)(=O)[C@@H](c2ccccc2)C1 |  | HepG2.117 |  |  | 0.1–0.5 µM
Cc1c(C(=O)C(=O)NC(C)(C)c2cccnc2)c(C)n(C)c1C(=O)Nc1ccc(F)c(C#N)c1 |  | HepG2.2.15 |  |  | 0.001–0.0099 µM
Cc1cc(C)n(-c2nc3c(c(=O)n2-c2ccc(N4CC[C@@H](O)C4)nc2)C[C@@H](C)N(C(=O)c2ccc(Br)c(C(F)(F)F)c2)C3)n1 |  | HepG2.117 |  | Genotype D | ≤0.05 µM
C[C@@H]1c2[nH]nc(-c3ncccn3)c2CN(C(=O)Nc2ccnc(Br)c2F)[C@H]1C |  | HepG2.2.15 |  |  | 0.028 µM
CNC(=O)c1ccc(-n2c(=O)c3c(n4ncc(N[C@H](C)c5ccccc5)c24)CN(C(=O)c2ccc(Br)c(Cl)c2)CC3)cc1 | 3 d | HepG2.117 |  |  | 0.1–0.5 µM
Cc1cc(C)n(-c2nc3c(c(=O)n2-c2ccc(-c4cnn(C)c4)cc2)C[C@@H](C)N(C(=O)c2ccc(Br)c(C(F)(F)F)c2)C3)n1 |  | HepG2.117 |  | Genotype D | ≤0.05 µM
Cn1nc2cc(NS(=O)(=O)c3cnn(-c4ccc(N)nc4)c3)ccc2c1C(=O)Nc1ccc(F)c(Cl)c1 |  | HepAD38 |  |  | 100–1000 µM
C#C[C@H](NC(=O)C(=O)c1c(C)c(C(=O)Nc2ccc(F)c(C(F)(F)F)c2)n(C)c1C)C1CC1 |  | HepG2.2.15 |  |  | <0.001 µM
C[C@@H](NC(=O)c1c2n(c(=O)n1-c1ccc(OCC(F)(F)F)cc1)CCN(C(=O)c1ccc(Br)c(Cl)c1)C2)c1ccc(OCC#N)cc1F |  | HepG2.117 |  |  | 0.5–5 µM
C#CC1(NC(=O)C(=O)c2c(C)c(C(=O)Nc3ccnc(Br)c3F)n(C)c2C)CC(F)(F)C1 |  | HepG2.2.15 |  |  | <0.001 µM
C[C@@H]1c2[nH]nc(-c3ncccn3)c2CN(C(=O)Nc2ccnc(Br)c2F)[C@@H]1C |  | HepG2.2.15 |  |  | 0.51 µM
N#Cc1cc(C(=O)N2CCc3c(n4ncc(Cc5ccccc5)c4n(-c4ccc(C(N)=O)cc4)c3=O)C2)ccc1Br | 3 d | HepG2.117 |  |  | >5 µM
C#C[C@@H](NC(=O)C(=O)c1c(C)c(C(=O)Nc2ccc(F)c(C(F)(F)F)c2)n(C)c1C)C1CC1 |  | HepG2.2.15 |  |  | <0.001 µM
COc1ccc(-n2c(=O)c3c(n4ncc(NC(C)=O)c24)CN(C(=O)c2ccc(Cl)c(Cl)c2)CC3)cc1 | 3 d | HepG2.117 |  |  | 0.5–5 µM
Cc1cc(Cl)ccc1C(=O)N1CCS(=O)(=O)[C@@H](c2cccs2)C1 |  | HepG2.117 |  |  | 0.5–5 µM
C#CC(CC)(CC)NC(=O)C(=O)c1c(C)c(C(=O)Nc2ccc(F)c(F)c2)n(C)c1C |  | HepG2.2.15 |  |  | 0.001–0.0099 µM
COC(=O)C1=C(CN2CC(F)(F)[C@@H]3[C@H]2CON3C[C@H](OC)C(C)(C)C(=O)O)NC(c2ncoc2C)=N[C@H]1c1ccc(F)cc1Cl |  | HepG2.2.15 |  |  | 0.062 µM
O=C(c1ccc(Br)c(Cl)c1)N1CCc2c(n3nccc3n(-c3ccccc3)c2=O)C1 | 3 d | HepG2.117 |  |  | 0.5–5 µM
C[C@@H]1c2[nH]nc(-c3ncccn3)c2CN(C(=O)Nc2ccc(F)c(C#N)c2)[C@@H]1C |  | HepG2.2.15 |  |  | 0.29 µM
CC(C)Oc1ccc(-n2c(C(=O)NCc3ccc(C(C)(C)O)cc3)c3n(c2=O)CCN(C(=O)c2ccc(Br)c(Cl)c2)C3)cc1 |  | HepG2.117 |  |  | <0.1 µM
C[C@@H](c1ccccc1)c1cnc([C@@]2(F)CN(C(=O)c3ccc(Br)c(Cl)c3)CCS2(=O)=O)s1 |  | HepG2.117 |  |  | <0.1 µM
COc1ccc(-n2c(C(=O)NCc3ccc4c(c3)OCCO4)c3n(c2=O)CCN(C(=O)c2ccc(Cl)c(Cl)c2)C3)cc1 |  | HepG2.117 |  |  | 0.5–5 µM
C[C@@H](NC(=O)C(=O)N1C[C@H]2COc3c(c(Cl)n(C)c3C(=O)Nc3ccc(F)c(Cl)c3)S(=O)(=O)N[C@H]2C1)C(F)(F)F |  | HepAD38 |  |  | <0.5 µM
Cn1nc2ccc(NC(=O)OCc3ccncc3)cc2c1C(=O)Nc1ccc(F)c(Cl)c1 |  | HepAD38 |  |  | 100–1000 µM
COCCNC(=O)C(=O)N1CC[C@@H](NS(=O)(=O)c2cn(C)c(C(=O)Nc3ccc(F)c(F)c3)c2F)C1 |  | HepAD38 cells |  |  | <0.1 µM
COC(=O)C1=C(CN2CC(F)(F)[C@@H]3[C@H]2CON3C[C@@H](F)C(C)(C)C(=O)O)NC(c2nccs2)=N[C@H]1c1ccc(F)c(F)c1C |  | HepG2.2.15 |  |  | 0.01 µM
C[C@@H]1CS(=O)(=O)[C@H](c2cccs2)CN1C(=O)c1ccc(Br)c(Cl)c1 |  | HepG2.117 |  |  | 0.5–5 µM
Cn1nc2cc(NS(=O)(=O)c3cnn(CCO)c3)ccc2c1C(=O)Nc1ccc(F)c(Cl)c1 |  | HepAD38 |  |  | 100–1000 µM
COc1ccc(CN2CCCCn3c(c4n(c3=O)CCN(C(=O)c3ccc(Br)c(Cl)c3)C4)C2=O)cc1 |  | HepG2.117 |  |  | 0.5–5 µM
C[C@H]1CS(=O)(=O)[C@H](c2cccs2)CN1C(=O)Nc1ccc(F)c(Cl)c1 |  | HepG2.117 |  |  | 0.5–5 µM
Cn1nc2cc(NS(=O)(=O)c3cnn(-c4cccnc4)c3)ccc2c1C(=O)Nc1ccc(F)c(Cl)c1 |  | HepAD38 |  |  | <100 µM
C=CC1(NC(=O)C(=O)c2c(C)c(C(=O)Nc3ccc(F)c(C#N)c3)n(C)c2Cl)COC1 |  | HepG2.2.15 |  |  | 0.001–0.0099 µM
Cn1cnc(-c2ccc([C@@H]3CN(C(=O)Nc4ccc(F)c(Cl)c4)CCS3(=O)=O)s2)c1 |  | HepG2.117 |  |  | 0.5–5 µM
Cc1cc(C)n(-c2nc3c(c(=O)n2-c2ccc(NC[C@@H](O)CO)nc2)C[C@@H](C)N(C(=O)c2ccc(Br)c(C(F)(F)F)c2)C3)n1 |  | HepG2.117 |  | Genotype D | 0.05–0.5 µM
Cn1nc2cc(NCS(=O)(=O)NC[C@H](O)CO)ccc2c1C(=O)Nc1ccc(F)c(Cl)c1 |  | HepAD38 |  |  | 100–1000 µM
Cn1cc2c(c1C(=O)Nc1ccc(F)c(C#N)c1)OC[C@@H]1CN(C(=O)C(=O)NC3(C)COC3)C[C@@H]1NS2(=O)=O |  | HepAD38 |  |  | >0.5 µM
CCOC(=O)C1=C(CN2CC(F)(F)[C@@H]3[C@H]2CON3C[C@H](OCC)C(C)(C)C(=O)O)NC(c2nccs2)=N[C@H]1c1cccc(F)c1C |  | HepG2.2.15 |  |  | 0.012 µM
Cn1cc(S(=O)(=O)Nc2ccc3c(C(=O)Nc4ccc(F)c(Cl)c4)n(C)nc3n2)cn1 |  | HepAD38 |  |  | >1000 µM
C[C@@H](NC(=O)C(=O)N1C[C@H]2COc3c(c(Cl)n(C)c3C(=O)Nc3ccc(F)c(F)c3)S(=O)(=O)N[C@H]2C1)C(F)(F)F |  | HepAD38 |  |  | <0.5 µM
CCOC(=O)C1=C(CN2CC(F)(F)[C@@H]3[C@H]2CON3CC(F)(F)C(C)(C)C(=O)O)NC(c2nccs2)=N[C@H]1c1cccc(F)c1C |  | HepG2.2.15 |  |  | 0.01 µM
CC(C)NC(=O)c1cnn2c3c(c(=O)n(-c4ccccc4)c12)CCN(C(=O)c1ccc(Cl)c(Cl)c1)C3 | 3 d | HepG2.117 |  |  | >5 µM
C[C@H](NC(=O)c1c2n(c(=O)n1C)CCN(C(=O)c1ccccc1)C2)c1ccccc1 |  | HepG2.117 |  |  | >5 µM
COC(=O)C1=C(CN2CC(F)(F)[C@@H]3[C@H]2CON3CC[C@@](C)(O)C(=O)O)NC(c2nccs2)=N[C@H]1c1ccc(F)c(F)c1Cl |  | HepG2.2.15 |  |  | 0.178 µM
CNc1cnc(-n2c(-n3nc(C)cc3C)nc3c(c2=O)C[C@@H](C)N(C(=O)c2ccc(Br)c(C(F)(F)F)c2)C3)nc1 |  | HepG2.117 |  | Genotype D | ≤0.05 µM
CCOC(=O)C1=C(CN2CC(F)(F)[C@@H]3[C@H]2CON3C[C@](C)(O)C(C)(C)C(=O)O)NC(c2nccs2)=N[C@H]1c1cccc(F)c1C |  | HepG2.2.15 |  |  | 0.029 µM
CCNC(=O)C(=O)N1CC(NS(=O)(=O)c2cn(C)c(C(=O)Nc3cc(F)c(F)c(F)c3)c2F)C1 |  | HepAD38 cells |  |  | <0.1 µM
Cc1cc(NC(=O)c2c3c(cn2C)S(=O)(=O)NC2CN(C(=O)C(=O)NC4(C)COC4)CC2CO3)ccc1F |  | HepG2 |  |  | <0.5 µM
CCNC(=O)c1ccc(-n2c(=O)c3c(n4ncc(Cc5ccccc5)c24)CN(C(=O)c2ccc(Br)c(Cl)c2)CC3)cc1 | 3 d | HepG2.117 |  |  | 0.5–5 µM
CNS(=O)(=O)N1CC[C@@H](NS(=O)(=O)c2c(F)c(C(=O)Nc3ccc(F)c(F)c3)n3c2CCC3)C1 |  | HepAD38 cells |  |  | 0.1–0.3 µM

A second listing of 9 rows from above:

{"SMILES": "Cn1cc(S(=O)(=O)Nc2ccc3c(C(=O)Nc4ccc(F)c(Cl)c4)n(CC4CC4)nc3c2)cn1", "cells": "HepAD38", "result": "100–1000 µM"}
{"SMILES": "C[C@H](NC(=O)c1c2n(c(=O)n1C)CCN(C(=O)c1ccccc1)C2)c1ccccc1", "cells": "HepG2.117", "result": ">5 µM"}
{"SMILES": "CNS(=O)(=O)N1CC[C@@H](NS(=O)(=O)c2c(F)c(C(=O)Nc3ccc(F)c(F)c3)n3c2CCC3)C1", "cells": "HepAD38 cells", "result": "0.1–0.3 µM"}
{"SMILES": "COC(=O)C1=C(CN2CC(F)(F)[C@@H]3[C@H]2CON3C[C@H](OC)C(C)(C)C(=O)O)NC(c2ncoc2C)=N[C@H]1c1ccc(F)cc1Cl", "cells": "HepG2.2.15", "result": "0.062 µM"}
{"SMILES": "Cn1cc2c(c1C(=O)Nc1ccc(F)c(C#N)c1)OC[C@@H]1CN(C(=O)C(=O)NC3(C)COC3)C[C@@H]1NS2(=O)=O", "cells": "HepAD38", "result": ">0.5 µM"}
{"SMILES": "C#CC1(NC(=O)C(=O)c2c(C)c(C(=O)Nc3ccnc(Br)c3F)n(C)c2C)CC(F)(F)C1", "cells": "HepG2.2.15", "result": "<0.001 µM"}
{"SMILES": "O=C(c1cc(F)cc(Cl)c1)N1CCS(=O)(=O)[C@H](c2cccs2)C1", "cells": "HepG2.117", "result": "0.5–5 µM"}
{"SMILES": "C[C@@H]1CS(=O)(=O)[C@H](c2cccs2)CN1C(=O)c1ccc(Br)c(Cl)c1", "cells": "HepG2.117", "result": "0.5–5 µM"}
{"SMILES": "O=C(c1ccc(Br)c(Cl)c1)N1CCS(=O)(=O)[C@@](F)(c2ncc(-c3ccccc3)s2)C1", "cells": "HepG2.117", "result": "0.5–5 µM"}